Test results: PubChem BioAssay AID540336 (Broad Institute, 2011)
The list shows a part of the results, in another mix than the full data. Active and inactive are the calls of the source.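 Rule for the calls: active = inhibition of at least 50% in every replicate; inconclusive = best replicate reaches 50% inhibition but some replicates fall short; inactive = the rest.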

Sequences of proteins named here, by UniProt entry; tags and fusion partners are left off.
UniProt Q5AAJ8, whole entry: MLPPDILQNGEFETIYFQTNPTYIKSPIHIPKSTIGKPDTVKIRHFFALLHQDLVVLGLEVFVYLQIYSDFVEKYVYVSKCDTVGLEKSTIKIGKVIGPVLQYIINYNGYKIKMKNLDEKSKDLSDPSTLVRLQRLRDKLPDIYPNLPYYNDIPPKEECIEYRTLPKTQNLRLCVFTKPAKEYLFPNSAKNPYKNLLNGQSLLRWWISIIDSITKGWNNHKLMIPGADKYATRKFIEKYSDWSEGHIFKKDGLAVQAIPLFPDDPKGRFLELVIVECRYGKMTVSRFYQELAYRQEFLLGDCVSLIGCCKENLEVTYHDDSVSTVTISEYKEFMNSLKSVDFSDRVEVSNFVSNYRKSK

These compounds were tested against Histone acetyltransferase RTT109 (Candida albicans (strain SC5314 / ATCC MYA-2876)) (UniProt Q5AAJ8) (assay: inhibitors of C. albicans Rtt109/Vps75 HAT, primary screen, biochemical, ThioGlo CoA-SH fluorescence, plate reader (AID 540336)). Details: purified Rtt109/Vps75, ThioGlo CoA-SH fluorescence, 4 h; at 34.9 µM; stronger effect = higher value.
In the case of `CC(C)(C)OC(=O)N1CCC(N(C(=O)c2ccccc2)c2ccc(Cl)cc2)CC1`, the inhibition was inactive: -2.63%.
In the case of `N#Cc1ccc(C(=O)NCC2(N3CCCCC3)CCCCC2)cc1`, the inhibition was inactive: 0.375%.
With `c1ccc(CN2CCC(Nc3ccccc3)CC2)cc1` the inhibition was inactive: 7.46%.
In the case of `CCCN1CCC(Nc2cc(OC)cc(OC)c2)CC1`, the inhibition was inactive: -8.48%.
For `Cc1cc(N(CCCl)CCCl)ccc1C=O`, the inhibition was inactive: 1.31%.
For `CN(C)C1(CNC(=O)c2cccc(C#N)c2)CCCCC1`, the inhibition was inactive: -1.4%.
For `O=C(NCC1(N2CCOCC2)CCCCC1)c1cc(Br)ccc1Cl`, the inhibition was inactive: 8.51%.
With `COc1cc(C(=O)NCC2(N3CCOCC3)CCCCC2)cc(OC)c1C` the inhibition was inactive: 2.27%.
For `N/C(=N\O)c1c(N)no[n+]1[O-]`, the inhibition was inactive: -9.26%.
With `CCOC(=O)N1CCC(Nc2ccc(C)cc2)CC1` the inhibition was inactive: -1.44%.
For `O=C(OC1CN2CCC1CC2)C1c2ccccc2C=Cc2ccccc21` (configuration not stated), the inhibition was inactive: 6.1%.
With `CCOc1ncccc1C(=O)NCC1(N2CCOCC2)CCCCC1` the inhibition was inactive: 1.99%.
With `CN1CCC(Nc2ccc(F)c(Cl)c2)CC1` the inhibition was inactive: -1.12%.
`CCCOc1ccc(C(=O)NCC2(N(C)C)CCCCC2)cc1` was tested, and the inhibition was inactive: 0.439%.
`CC(C)(C)OC(=O)N1CCC(Nc2ccccc2)CC1` was tested, and the inhibition was inactive: -1.28%.
With `O=C(O)C1(Nc2ccccc2)CCN(Cc2ccccc2)CC1` the inhibition was inactive: 3.96%.
`CCC(CO)(C(=O)OC1CN2CCC1CC2)c1ccccc1` (configuration not stated) was tested, and the inhibition was inactive: -25.4%.
In the case of `COc1cc(OC)cc(C(=O)NCC2(N3CCOCC3)CCCCC2)c1`, the inhibition was inactive: -15.3%.
For `COc1cccc(C(=O)N(c2cc(C)cc(C)c2)C2CCN(C(=O)OC(C)(C)C)CC2)c1`, the inhibition was inactive: -1.2%.
With `CN1CCC(Nc2ccc(Cl)cc2)CC1` the inhibition was inactive: -6.81%.
`COc1cc(OC)cc(C(=O)NCC2(N3CCCCC3)CCCCC2)c1` was tested, and the inhibition was inactive: 2.72%.
`CC(=O)N(c1ccccc1)C1CCNCC1` was tested, and the inhibition was inactive: 9.79%.
With `Cc1ccc(NC2(C#N)CCN(Cc3ccccc3)CC2)cc1` the inhibition was inactive: 0.738%.
In the case of `Cc1ccc(C(=O)NCC2(N3CCCCC3)CCCCC2)o1`, the inhibition was inactive: -11.9%.
For `Fc1ccccc1NC1CCN(Cc2ccccc2)CC1`, the inhibition was inactive: -3.05%.
`Cc1ccccc1NC1(C#N)CCN(Cc2ccccc2)CC1` was tested, and the inhibition was inactive: 1.55%.
`CCN1CCC(Nc2cccc(F)c2)CC1` was tested, and the inhibition was inactive: 0.148%.
`O=C(NCC1(N2CCCCC2)CCCCC1)c1ccco1` was tested, and the inhibition was inactive: 0.796%.
In the case of `CN(C)c1ccc(C(=O)NCC2(N3CCCCC3)CCCCC2)cc1`, the inhibition was inactive: 7.74%.
With `Cn1c(=O)[nH]cc(N(CCCl)CCCl)c1=O` the inhibition was inactive: -15.3%.
In the case of `CCOc1ccc(C)cc1CN(CCCl)CCCl`, the inhibition was inactive: 2.33%.
`O=C1CCN(Cc2ccccc2)CC1` was tested, and the inhibition was inactive: 3.08%.
In the case of `O=P1(N(CCCl)CCCl)SCCCS1`, the inhibition was inactive: -5.8%.
With `CCCCOc1ccc(C(=O)NCC2(N3CCOCC3)CCCCC2)cc1` the inhibition was inactive: 5.14%.
For `O=C(NCC1(N2CCCCC2)CCCCC1)c1ccc(F)cc1`, the inhibition was inactive: -6.86%.
With `COc1ccc(NC2CCN(CCc3ccccc3)CC2)c(OC)c1` the inhibition was inactive: -17.1%.
For `CCOC(=O)N1CCC(Nc2ccc(F)cc2)CC1`, the inhibition was inactive: -3.2%.
For `CCOC(=O)N1CCC(Nc2cccc(C)c2)CC1`, the inhibition was inactive: -5.8%.
In the case of `COc1cc(C(=O)NCC2(N(C)C)CCCCC2)ccc1OC(F)F`, the inhibition was inactive: -7.57%.
For `O=C(NCC1(N2CCCCC2)CCCCC1)c1ccc(=O)[nH]c1`, the inhibition was inactive: 2.33%.
With `O=C(NCC1(N2CCCCC2)CCCCC1)c1cccs1` the inhibition was inactive: 13.9%.
`COc1ccc(C(=O)NCC2(N3CCCCC3)CCCCC2)c(OC)c1OC` was tested, and the inhibition was inactive: 9.14%.
In the case of `CC(C)(C)OC(=O)N1CCC(N(C(=O)c2ccccc2)c2ccc(F)cc2)CC1`, the inhibition was inactive: -1.4%.
`CSc1ccccc1C(=O)NCC1(N2CCCCC2)CCCCC1` was tested, and the inhibition was inactive: -3.78%.
For `Cc1cccc(NC2(C#N)CCN(Cc3ccccc3)CC2)c1`, the inhibition was inactive: 1.3%.
With `O=C(NCC1(N2CCOCC2)CCCCC1)c1cc2ccccc2o1` the inhibition was inactive: -9.44%.
With `O=C(NCC1(N2CCCCC2)CCCCC1)c1ccc(Cl)nc1` the inhibition was inactive: -8.85%.
With `Cc1cc(C)cc(N(C(=O)c2ccccc2)C2CCN(C(=O)OC(C)(C)C)CC2)c1` the inhibition was inactive: -4.4%.
For `CCOC(=O)N1CCC(Nc2ccc(OC)cc2)CC1`, the inhibition was inactive: -5.76%.
For `N#CC1(Nc2ccccc2)CCN(Cc2ccccc2)CC1`, the inhibition was inactive: 4.6%.
In the case of `O=C(NCC1(N2CCCCC2)CCCCC1)c1ccc(Cl)s1`, the inhibition was inactive: 0.397%.
`O=C(OC1CN2CCC1CC2)C1c2ccccc2Oc2ccccc21` (configuration not stated) was tested, and the inhibition was inactive: 5.49%.
`COc1ccc(Cl)cc1C(=O)NCC1(N2CCOCC2)CCCCC1` was tested, and the inhibition was inactive: 9.06%.
For `COc1ccc(CN(CCCl)CCCl)cc1Cl`, the inhibition was inactive: -10.6%.
For `CN(C)c1cccc(C(=O)NCC2(N3CCCCC3)CCCCC2)c1`, the inhibition was inactive: -4.58%.
For `CC(C)c1ccc(NC2CCN(C(=O)OC(C)(C)C)CC2)cc1`, the inhibition was inactive: -5.5%.
`COc1cc(OC)c(C(=O)NCC2(N(C)C)CCCCC2)cc1OC` was tested, and the inhibition was inactive: 9.76%.
In the case of `O=C(NCC1(N2CCOCC2)CCCCC1)c1cc(F)c(F)cc1Cl`, the inhibition was inactive: -21.5%.
For `CN1CCC(Nc2cccc(F)c2)CC1`, the inhibition was inactive: -1.49%.
For `O=C(NCC1(N2CCCCC2)CCCCC1)c1cncc(Br)c1`, the inhibition was inactive: -7.87%.
In the case of `CCCOc1ccc(C(=O)NCC2(N(C)C)CCCCC2)cc1OC`, the inhibition was inactive: -1.03%.
`O=C(NCC1(N2CCCCC2)CCCCC1)c1ccc(OC(F)F)cc1` was tested, and the inhibition was inactive: 3.07%.
For `CSc1ccc(C(=O)NCC2(N3CCOCC3)CCCCC2)cc1`, the inhibition was inactive: 6.29%.
For `O=C(NCC1(N2CCCCC2)CCCCC1)c1cccc([N+](=O)[O-])c1`, the inhibition was inactive: 7.19%.
In the case of `CCN1CCC(Nc2ccc(Cl)cc2)CC1`, the inhibition was inactive: -6.87%.
`N#CC1(Nc2ccccc2)CCN(CCc2ccccc2)CC1` was tested, and the inhibition was inactive: 9.45%.
In the case of `O=C(NCC1(N2CCCCC2)CCCCC1)c1cccc(C(F)(F)F)c1`, the inhibition was inactive: -3.88%.
In the case of `CN1CCN(CCOC(=O)C(O)(c2ccccc2)c2ccccc2)CC1`, the inhibition was inactive: -1.31%.
In the case of `COc1ccc(NC2CCN(C(=O)OC(C)(C)C)CC2)cc1`, the inhibition was inactive: -11.1%.
`CC(C)c1ccc(C(=O)NCC2(N3CCOCC3)CCCCC2)cc1` was tested, and the inhibition was inactive: 1.31%.
In the case of `COc1cc(C(=O)NCC2(N3CCCCC3)CCCCC2)ccc1OC(F)F`, the inhibition was inactive: -5.24%.
With `O=C(NCC1(N2CCOCC2)CCCCC1)c1cc(=O)[nH]c2ccccc12` the inhibition was inactive: 1.12%.
